Pooled drug test results. Numbers come from NIAID ChemDB, via PubChem.

Common to all: whole-cell or culture tests; organism: HIV-1; read by: cytopathic effect / XTT; read-out: fold resistance

Blank or dashed fields: not listed here. Lines come from different laboratories, so protocols vary. Fold resistance has wild type as its base.

compound	cell line	changes	strain	value
C[C@H](Cn1cnc2c(N)ncnc21)OCP(=O)(O)O	MT-2	RT-K65R M184V	Site-directed mutant	2.1
Fc1cccc(F)c1[C@@H]1SCc2nc3ccccc3n21	CEM	RT-L100I	IIIB	3.75
Cc1cn([C@H]2C[C@H](N=[N+]=[N-])[C@@H](CO)O2)c(=O)[nH]c1=O	MT-2	RT-K65R Y115F M184V	Site-directed mutant	1.4
Cc1cn([C@H]2C[C@H](N=[N+]=[N-])[C@@H](CO)O2)c(=O)[nH]c1=O	CEM + CEM-SS	RT-A98G	NL4-3	10
Cc1cn([C@@H]2O[C@H](CO[Si](C)(C)C(C)(C)C)C3(OS(=O)(=O)C=C3N)[C@H]2O[Si](C)(C)C(C)(C)C)c(=O)n(C)c1=O	CEM	RT-Y188C	IIIB	80
O=C1N(Cc2ccc(CO)cc2)[C@H](COc2ccccc2)[C@H](O)[C@@H](O)[C@@H](COc2ccccc2)N1Cc1ccc(CO)cc1	MT-4	PR-L10F I84V	IIIB	31.7
Nc1nc(N)c2ncn([C@H]3CO[C@@H](CO)O3)c2n1	MT-2	RT-K65R Q151M	-	10
CCc1c(C(=O)c2cc(C)cc(C)c2)n(CC2CC=CC2)c(=O)[nH]c1=O	CEM + CEM-SS	Y188C	NL4-3	30
Cc1cn([C@H]2C[C@H](N=[N+]=[N-])[C@@H](CO)O2)c(=O)[nH]c1=O	CEM + CEM-SS	RT-T139I	Calanolide-resistant (RT T139I)	2
CC1=C(C(=O)Nc2ccc(Cl)c(C(=O)OC(C)C)c2)SCCO1	CEM + CEM-SS	RT-Y181C	IIIB(N119(III))	>333
Fc1cccc(F)c1C1SCc2nc3ccccc3n21	CEM	RT-Y188C	IIIB	2.99
CCc1c(Sc2ccccn2)n(COCc2ccccc2)c(=O)[nH]c1=O	CEM + CEM-SS	RT-V90I T139I P225S	IIIB(CALO-R(II))	1
C/C=C/CSc1cc(NC(=S)c2ccsc2C)ccc1Cl	CEM + CEM-SS	RT-L100I	NL4-3 (RT L100I)	>40
CCc1c(Sc2ccccn2)n(COCc2ccccc2)c(=O)[nH]c1=O	CEM + CEM-SS	RT-D67N K70R L100I T215Y K219Q	4XAZT+L100I (RT D67N K70R L100I T215Y K219Q)	1
O=[N+]([O-])c1ccccc1S(=O)(=O)c1ccccc1	CEM + CEM-SS	RT-P236L	IIIB HEPT-resistant (IV)	0.8
Cc1ccnc2c1NC(=O)c1cccnc1N2C1CC1	CEM + CEM-SS	RT-K103N	NL4-3	>100
Cc1cn([C@@H]2O[C@H](CO[Si](C)(C)C(C)(C)C)[C@@]3(OS(=O)(=O)C=C3N)[C@H]2O[Si](C)(C)C(C)(C)C)c(=O)[nH]c1=O	CEM + CEM-SS	RT-Y181C	UC040-R (RT-Y181C)	>200
O=S1(c2ccccc2)=NC(=S)Nc2ccccc21	CEM + CEM-SS	RT-K103N Y181C	IIIB(A17(III))	52
Cc1occc1C(=S)Nc1ccc(Cl)c(/C=N/OC(C)(C)C)c1	CEM + CEM-SS	RT-L100I	NL4-3 (RT L100I)	27.5
Nc1nc2c(ncn2[C@H]2CO[C@@H](CO)O2)c(=O)[nH]1	MT-2	RT-F116Y Q151M T215Y	-	10